Values from PubChem BioAssay AID624099 (ICCB-Longwood, 2012).
Here is an unselected part of about 21,000 reagents. Of all reagents, 497 (2.4%) are marked active. 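Higher z means weaker E2 silencing; only reporter increases were scored, and knock-downs that hurt cell survival may mask genuine repressor factors.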 Unmarked entries are inactive.

- Assay: 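Human genes that papillomavirus E2 requires to repress the HPV18 LCR promoter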 (primary screen)
- Cells: human C33A cervical carcinoma cells (HPV-negative) stably expressing BPV1 E2 and an HPV18 LCR luciferase reporter
- Reagent: siRNA pool against human genes, 40 nM
- Timing: 72 h
- Detection: 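Per-well luciferase luminescence, z-scored on each plate against the plate mean and SD with control wells left out, then averaged across three replicate plates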
- Direction: mean z-score and z-score: higher = stronger reporter signal, weaker E2 silencing
- Hit rule: 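Mean z ≥ 2 together with z ≥ 2 in two or more of the three replicates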

target	mean z-score	z-score, replicate A	z-score, replicate B	z-score, replicate C
NAF1	0.46	0.68	0.19	0.52
SEC61B	-0.17	-0.39	0.25	-0.37
TYRO3	1.64	1.76	1.51	1.66
DNAJC5B	0.15	0.19	-0.03	0.28
RNF24	-0.14	-0.19	-0.31	0.07
PALM3	0.96	1.31	0.68	0.89
SOST	-0.41	-0.45	-0.48	-0.29
ARID4A	-1.17	-1.18	-1.3	-1.05
CCDC91	-0.78	-1.07	-0.95	-0.32
PBX1	1.49	1.29	1.31	1.85
CTXN2	1.43	1.68	1.14	1.48
EIF4B	0.72	0.7	0.46	1
ZNF785	-0.21	0	-0.26	-0.38
PKMYT1	-2.02	-2.25	-1.66	-2.16
DEFB118	-0.52	-0.73	-0.46	-0.36
ZDHHC16	3.51 (active)	3.23	3.86	3.43
BRD7	1.5	1.96	1.35	1.18
SLC25A48-AS1	-2.1	-2.04	-2.42	-1.84
JAML	2.53 (active)	2.93	2.28	2.38
PLEKHA8P1	1.14	1.71	0.71	1.01
GOLGA8F	-0.35	-0.7	-0.37	0.02
L3MBTL2	1.61	1.44	2.01	1.36
MAFB	1.32	1.29	1.59	1.09
RIOX2	1.36	1.04		1.68
HROB	0.65	0.65	0.44	0.86
ELK3	0.14	0.38	-0.07	0.11
BAIAP2-DT	-0.12	0.08	-0.09	-0.35
LINC01599	0.74	0.76	0.52	0.94
HTR6	0.16	0.18	0.2	0.09
EBAG9	1.79	2.2	1.68	1.5
GMPR2	0.42	0.2	0.7	0.35
ILDR1	-0.2	-0.4	0.06	-0.25
FNBP1L	1.18	1.44	0.84	1.26
ZFP57	0.76	1.07	0.66	0.56
GABRB1	-0.04	-0.19	-0.12	0.2
ADAM11	-1.98	-2.2	-2.02	-1.72
S100A11	1.12	1.17	1.52	0.67
HGF	0.09	0.28	-0.07	0.06
TTBK2	0.36	0.49	-0.01	0.62
CRABP1	0.2	0.01	0.2	0.38
HOXC9	-0.73	-0.56	-0.72	-0.92
NEXMIF	0.6	0.66	0.41	0.72
PPP1R1C	2.56 (active)	2.58	2.83	2.28
CNTN3	1.64	1.45	1.59	1.86
RPP21	-2.73	-2.13	-3.07	-3.01
TRIM63	1.89	1.82	1.98	1.86
TRIM72	-1.09	-0.72	-1.18	-1.36
RTEL1	0.01	0.2	-0.2	0.02
NOP9	-0.7	-0.47	-0.9	-0.73
LOC284134 (retired record)	-0.46	-0.68	-0.39	-0.3
GRK5	-0.11	-0.02	0.18	-0.49
PCDH7	-1.32	-1.04	-1.52	-1.41
ABHD5	1.74	1.8	1.93	1.47
RHOU	-1.13	-0.97	-1.24	-1.19
RP1L1	-0.02	0.01	-0.09	0.02
KCNC3	0.55	0.83	0.43	0.39
MIS18A	0.73	0.98	0.73	0.47
